Experimental data published in the supplement of paper PMC12637763.
Substitutions are numbered along the chain they refer to. Some of the results follow. Env chains of viruses from a treatment-interruption trial, translated from the printed DNA. IC50 / IC80 of two broadly neutralizing antibodies; lower = more sensitive virus; >50 µg/ml means not reached and <0.001 µg/ml is below the lowest dose. No active / inactive call.

B1: HIV-1 Env, rebound clone, antibody arm (protein)
chain: MKVKGTQRNWQPLWILILGLVIICRASDNLWVTVYYGVPVWEDADTPLFCASDAKAYKTEKHNVWATHACVPTDPNPQEIILQNVTETFNMWKNNMVEQMHEDIISLWDESLKPCVKLTPLCVTLNCTDANFTMTNNNTNKVEAKNCTFNITTEIRDKKKKEYALFYKLDVVQMDESSTNSSTNSGTYRLINCNVSTIKQACPKVSFEPIPIHYCAPAGFAILKCNDKEFNGTGECKNVSSVQCTHGIKPVVSTQLILNGSLAEKEIMIRSENITNNAKIIIVQLNETVKINCSRPNNNTRRSIHIGPGQAFYAFRDVIGDIRQAHCNVRRTEWSKTLNRVAIQLRKHFSTNTTITFASPLGGDLEITTHSFNCGGEFFYCNTSALFNSTWNSTSTWNSTTSSNFTKDITLQCRIKQIVNMWQKVGQAMYAPPIEGVIRCESNITGLLLTRDGGTNETCSHSPNETFRPGGGDMRDNWRSELYKYKIIKIKPLGIAPTRARRRVVQREKRAVGLGTFFLGFLGTAGSTMGAASITLTVQVRQLLSGIVQQQSNLLRAIDAQQHLLQLTVWGIKQLQARVLAVERYLKDQQLLGIWGCSGKLICTTNVPWNTSWSNKSYNEIWDNMTWIQWEREVSNYTQQIYSLIEQSQNQQEKNEQDLLALDKWASLWSWFDITSWLWYIKIFIMIVGGLIGLRIVFAVLSIVNRVRQGYSPLSFQTLTHHQREPDRPERIEEGGGEQDKDRSVRLVSGFLALAWDDLRSLCLFLYHRLRDFVLIATRTLELLGHSSLRGLRLGWEALKYLWNLLLYWGRELKNSAINLLDTIAVGVANWTDRVIEVAQRVGRAFLNIPRRIRQGSERALL
B2: HIV-1 Env, rebound clone, antibody arm (protein)
chain: B1 chain with G186S, H326Y, N328K, R330S, D476N, S857F, R859G
B3: HIV-1 Env, rebound clone, antibody arm (protein)
chain: MRVRETLRNYRLWWIWGILGFWMLMICKGGGDSWVTVYYGVPVWKEAKTTLFCASDAKAYETEMHNVWATHACVPTDPNPQEVPLENVTENFNMWKNDMVEQMHEDVISLWDESLKPCVKLTPLCVTLKCTNATSNGTDTNKTADGYNEIKNCSFNATTIVKDKKQKVYALFYRLDIVPLGNSSEYRLINCNTSAMTQACPKVSFDPIPIHYCAPAGYAIIKCNNKTFNGTGPCNSVSTVQCTHGIKPVVSTQLLLNGSLAEEEIIIRSENLTNNAKIIIVHLNKSVEINCTRPGNNTRKSIRIGPGQTFYATGSIIGDIRKAHCNIRETAWNDTLYKVSKKLAEHFNKTIIFAPSSGGDLEITTHSFNCRGEFFYCNTSGLFKGTYNATSGNSTSNATITLPCRIKQVINMWQGVGKAMYAPPIEGNIICRSNITGLLLTRDGGSNSTDETFRPEGGDMRDNWRSELYKYKVVEIKPLGIAPTGAKRRVVEREKRAVGLGAVFLGFLGAAGSTMGAASITLTAQARQLLSGIVQQQSNLLRAIEAQQHMLQLTVWGIKQLQARVLALERYLQDQQLLGIWGCSGKLICTTAVPWNSSWSNRSREYIWENMTWMQWEREIENYTGTIYQLLEDSQNQQEKNEQDLLALDSWKNLWNWFGISKWLWYIKIFIMIVGGLIGLRILFAIISVVNRVRQGYSPLSFQTLTPNPGGPDRLGGIEEEGGEQDRDRSVRLVNGFLALAWDDLRSLCLFLYHRLRDFISVTVRVVELLGRSSLKGLQGGWEALKYLGNLVQYWISELKKSAISLLDTIAIAVAEGTDRIIDLIQEICRAILNIPRRIRQGFEAALQ
B4: HIV-1 Env, rebound clone, antibody arm (protein)
chain: B3 chain with R442H
B5: HIV-1 Env, rebound clone, antibody arm (protein)
chain: B3 chain with L12P

Tests used:
antibody 10-1074 [1] = assay: neutralization IC50; higher = virus less sensitive to the antibody
Description: (§1)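 Pseudovirus bearing the Env chain mixed with antibody, from 50 µg/ml in fivefold dilutions, on TZM-bl reporter cells, in duplicate.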

antibody 3BNC117 [2] = assay: as above
Description: as §1

antibody 10-1074 [3] = assay: neutralization IC80; higher = virus less sensitive to the antibody
Description: as §1

antibody 3BNC117 [4] = assay: as above
Description: as §1

Binder | neutralization IC50 (antibody 10-1074 [1]) | neutralization IC50 (antibody 3BNC117 [2]) | neutralization IC80 (antibody 10-1074 [3]) | neutralization IC80 (antibody 3BNC117 [4])
B1 | 1.45 µg/mL | 0.034 µg/mL | 9.65 µg/mL | 0.135 µg/mL
B2 | 41.8 µg/mL | 0.02 µg/mL | > 50 µg/mL | 0.095 µg/mL
B3 | > 50 µg/mL | 0.058 µg/mL | > 50 µg/mL | 0.274 µg/mL
B4 | > 50 µg/mL | > 50 µg/mL | > 50 µg/mL | > 50 µg/mL
B5 | > 50 µg/mL | 0.063 µg/mL | > 50 µg/mL | 0.218 µg/mL
